Compound potency records, mixed from different reports. Data source: NIAID ChemDB in PubChem.

All rows: cytotoxicity tests; cell line: MT-4; endpoint: CC50

CCn is the concentration with n% toxicity to the cells.

smiles	method	value
CCn1nnc2c(C)nn(C)c21	-	>200 µM
CCNC(=O)[C@@H](NC(=O)Cc1ccccn1)[C@@H]1N[C@@H](C(=O)NCCNC(=O)[C@@H]2N[C@@H]([C@H](NC(=O)Cc3ccccn3)C(=O)NCC)SC2(C)C)C(C)(C)S1	-	>100 µM
Cc1nn(-c2ccccc2)c2nn([C@@H]3O[C@H](CO)[C@@H](O)[C@H]3O)nc12	-	145 µM
COC(=O)C(=O)N1CCC[C@H]1C(=O)N[C@@H](Cc1ccccc1)C(=O)OCc1ccccc1	-	>200 µM
COc1cccc(S(=O)(=O)/N=c2\sc(C(C)(C)C)c(C)n2C)c1	MTT	>25 µM
Cc1cc(C)cc(C(=O)c2cccnc2Nc2ccc(S(C)(=O)=O)cc2)c1	MTT	98.17 µM
Cn1cc(C(=O)O)c(=O)c2cc(F)c(N3CC=C(c4ccccc4)CC3)c(C(F)(F)F)c21	-	0.5 µM
COc1ccc2c(Cc3c(-c4ccccc4)[nH]c4ccccc34)c(OC(C)=O)ccc2c1	-	19 µM
CC(C)c1c(Sc2cccc3ccccc23)n(COCc2ccccc2)c(=O)[nH]c1=O	MTT	35.3 µM
Cc1cn([C@H]2C[C@H](N=[N+]=[N-])[C@@H](COC(=O)C(=O)N3CCCC3C(=O)N[C@@H](Cc3ccccc3)C(=O)OCc3ccccc3)O2)c(=O)[nH]c1=O	-	88 µM
CCc1c(Sc2cccc3ccccc23)n(COCc2ccc(F)cc2)c(=O)[nH]c1=O	MTT	30.96 µM
COc1ccc2c(Cc3c(C)[nH]c4ccccc34)c(OC(C)=O)ccc2c1	-	18 µM
CCNC(=O)[C@@H](NC(=O)CC(C)C)[C@@H]1N[C@@H](C(=O)NCCNC(=O)[C@@H]2N[C@@H]([C@H](NC(=O)CC(C)C)C(=O)NCC)SC2(C)C)C(C)(C)S1	-	>100 µM
Nc1ncnc2c1ncn2[C@H]1CC[C@@H](CO)O1	-	>150 µM
Cc1cc(CC(C)C#N)cc(C)c1Nc1ccnc(Nc2ccc(C#N)cc2)n1	MTT	1 µM
CCOC(=O)c1cn(CC=C(C)C)cc1S(=O)(=O)c1cc(Cl)ccc1N	MTT	>200 µM
Cc1cc(C)cc(C(=O)c2cccnc2Oc2ccccc2)c1	MTT	20.72 µM
Cc1c(C(C)(C)C)s/c(=N\S(=O)(=O)c2cccc(Cl)c2O)n1C	MTT	>25 µM
COCn1c(Sc2ccc3ccccc3c2)c(C(C)C)c(=O)[nH]c1=O	MTT	59.58 µM
CC1(C)S[C@H]([C@H](NC(=O)c2ccccc2-c2ccccc2)C(=O)NCC(=O)O)N[C@H]1C(=O)NCCNC(=O)[C@@H]1N[C@@H]([C@H](NC(=O)c2ccccc2-c2ccccc2)C(=O)NCC(=O)O)SC1(C)C	-	>100 µM
CC(C)c1s/c(=N\S(=O)(=O)c2cc(Cl)ccc2O)n(C)c1Cl	MTT	>25 µM
CCNC(=O)[C@@H](NC(=O)c1ccccc1Oc1ccccc1)[C@@H]1N[C@@H](C(=O)NCCNC(=O)[C@@H]2N[C@@H]([C@H](NC(=O)c3ccccc3Oc3ccccc3)C(=O)NCC)SC2(C)C)C(C)(C)S1	-	>100 µM
CCOC(=O)CNc1c([N+]#N)c(C)nn1-c1ccccc1	-	122 µM
O=c1[nH]cnc2c1ncn2[C@H]1CC[C@@H](CO)O1	MTT	529 µM
Cc1cn([C@H]2C[C@H](N=[N+]=[N-])[C@@H](COC(=O)C(=O)N3CCCC3C(=O)N[C@H](Cc3ccccc3)C(=O)OCc3ccccc3)O2)c(=O)[nH]c1=O	-	97 µM
COc1ccc2[nH]cc(Cc3c(OC(C)=O)ccc4cc(Br)ccc34)c2c1	-	20 µM
CC1(C)S[C@H]([C@@H](CO)NC(=O)Cc2ccccc2)N[C@H]1C(=O)NCCNC(=O)[C@@H]1N[C@@H]([C@@H](CO)NC(=O)Cc2ccccc2)SC1(C)C	-	>100 µM
CC(C)c1s/c(=N\S(=O)(=O)c2cccc([N+](=O)[O-])c2)n(C)c1Cl	MTT	24 µM
CC(=O)Oc1ccc2cc(Br)ccc2c1Cc1c[nH]c2ccc(Br)cc12	-	19 µM
CCCc1c(Sc2cccc3ccccc23)n(COCC)c(=O)[nH]c1=O	MTT	37.11 µM
CC(C)c1s/c(=N\S(=O)(=O)c2cc(Br)ccc2O)n(C)c1Cl	MTT	>25 µM
Cc1cc(C)cc(C(=O)c2cccnc2Oc2ccc(C#N)cc2)c1	MTT	31.61 µM
CC(C)c1c(Sc2cccc3ccccc23)n(COCC2CC2)c(=O)[nH]c1=O	MTT	32.75 µM
Cc1c(C(C)(C)C)s/c(=N\S(=O)(=O)c2cc(Cl)ccc2C#N)n1C	MTT	8 µM
COc1ccc2ccc(OC(C)=O)c(Cc3c[nH]c4ccc(OC)cc34)c2c1	-	47 µM
O=C1Nc2ccc(Cl)cc2S(=O)(=O)c2cn(CC=Cc3ccccc3)cc21	MTT	>200 µM
CCc1c(Sc2ccc3ccccc3c2)n(COC)c(=O)[nH]c1=O	MTT	210 µM
Cc1cc(C)cc(C(=O)c2cccnc2Nc2ccc(CC#N)cc2)c1	MTT	97.46 µM
CCOC(=O)c1c[nH]cc1S(=O)(=O)c1cc(Cl)ccc1NCC=C(C)C	MTT	12 µM
CC1(C)S[C@H]([C@H](NC(=O)Cc2ccccc2)C(=O)OCc2ccccc2)N[C@H]1C(=O)NCCNC(=O)[C@@H]1N[C@@H]([C@H](NC(=O)Cc2ccccc2)C(=O)OCc2ccccc2)SC1(C)C	-	>100 µM
Cc1cn([C@H]2C[C@H](N=[N+]=[N-])[C@@H](CO)O2)c(=O)[nH]c1=O	-	93 µM
Cc1c(C(C)(C)C)s/c(=N\S(=O)(=O)c2ccccc2O)n1C	MTT	>25 µM
Cc1nn(-c2ccccc2)c2c1nnn2Cc1ccccc1	-	114 µM
C/C(C#N)=C/c1cc(C)c(Nc2ccnc(Nc3ccc(C#N)cc3)n2)c(C)c1	MTT	3 µM
CCc1c(Sc2cccc3ccccc23)n(COC)c(=O)[nH]c1=O	MTT	38.78 µM
Cc1cc(/C=C(\C#N)CC#N)cc(C)c1Nc1ccnc(Nc2ccc(C#N)cc2)n1	MTT	2 µM
CC(C)=CCn1cc2c(c1)S(=O)(=O)c1cc(Cl)ccc1NC2=S	MTT	30 µM

Again, the opening 6 rows:

CCn1nnc2c(C)nn(C)c21 ; value: >200 µM
CCNC(=O)[C@@H](NC(=O)Cc1ccccn1)[C@@H]1N[C@@H](C(=O)NCCNC(=O)[C@@H]2N[C@@H]([C@H](NC(=O)Cc3ccccn3)C(=O)NCC)SC2(C)C)C(C)(C)S1 ; value: >100 µM
Cc1nn(-c2ccccc2)c2nn([C@@H]3O[C@H](CO)[C@@H](O)[C@H]3O)nc12 ; value: 145 µM
COC(=O)C(=O)N1CCC[C@H]1C(=O)N[C@@H](Cc1ccccc1)C(=O)OCc1ccccc1 ; value: >200 µM
COc1cccc(S(=O)(=O)/N=c2\sc(C(C)(C)C)c(C)n2C)c1 ; method: MTT ; value: >25 µM
Cc1cc(C)cc(C(=O)c2cccnc2Nc2ccc(S(C)(=O)=O)cc2)c1 ; method: MTT ; value: 98.17 µM

Blank or dashed fields: not listed here. Neighbouring rows are from separate reports.